Pooled drug test results. Numbers come from NIAID ChemDB, via PubChem.

Common to all: host cell toxicity; cell line: MT-4; measure: CC50

CCn: concentration that lowers growth or viability of the cells by n%.

compound	method	value
O=c1[nH]cnc2c1ncn2[C@H]1CC[C@@H](CO)O1		>100 µM
Nc1ccn([C@H]2C[C@H](O)C(/C=C/Cl)(CO)O2)c(=O)n1	MTT	4.6 µM
CCCOc1nc(Cc2ccccc2)c(C)c(=O)[nH]1		244 µM
C[C@]1(CO)O[C@@H](n2ccc(N)nc2=O)C[C@@H]1O	MTT	0.062 µM
CCOCn1c(Cc2ccccc2)c(C(C)C)c(=O)[nH]c1=O		105 µM
C#CC1(CO)O[C@@H](n2c(C)nc3c(N)ncnc32)[C@H](O)[C@@H]1O		>400 µM
CC(C)(C)[Si](C)(C)OC[C@H]1O[C@@H](n2ccc(=O)[nH]c2=O)[C@H](O[Si](C)(C)C(C)(C)C)C12OS(=O)(=O)C=C2N		14.4 µM
CCCOc1nc(Cc2ccccc2)c(CC)c(=O)[nH]1		216 µM
COc1ccc(S(=O)(=O)NC(N)=NCCC[C@H](NC(=O)N[C@@H](Cc2ccccc2)C(=O)OC(C)(C)C)C(=O)N[C@H](C(=O)N[C@H](COCc2ccccc2)Cc2ccccc2)C(C)C)cc1		41 µM
Cc1cn([C@H]2C[C@H](N=[N+]=[N-])[C@@H](CO)O2)c(=O)[nH]c1=O		>100 µM
CC(C)[C@H]1C(=O)N[C@H](CO)Cc2c[nH]c3cccc(c23)N1C		0.1 µg/mL
C#C[C@]1(CO)O[C@@H](n2cc(I)c(=O)[nH]c2=O)C[C@@H]1O		>400 µM
CC(C)(C)NC(=O)[C@@H]1C[C@@H]2CCCC[C@@H]2CN1C[C@@H](O)[C@H](Cc1ccccc1)NC(=O)[C@H](CC(N)=O)NC(=O)c1ccc2ccccc2n1	MTT	>100 µM
O=C1CCC(c2ccccc2)C(=O)N1CCCCN1CCN(c2ccccc2)CC1	MTT	74 µM
CC[C@]1(CO)O[C@@H](n2cc(C)c(=O)[nH]c2=O)C[C@@H]1O		>400 µM
Nc1nc(Cl)nc2c1ncn2[C@@H]1C[C@H](O)[C@H](CO)O1		>10 µM
C#CC1(CO)O[C@@H](n2cnc3c(N)ncnc32)[C@H](O)[C@@H]1O		>400 µM
Nc1ccn([C@H]2CO[C@@H](CO)O2)c(=O)n1		10 µg/mL
CCCCOc1nc(Cc2ccccc2)c(CC)c(=O)[nH]1		185 µM
CC(=O)c1ccc(C)cc1NC(C(N)=O)c1c(Cl)cccc1Cl		33 µM
COc1cc2oc(=O)c(-c3ccc(O)cc3O)cc2c(OC)c1CC=C(C)C		11 µg/mL
O=C1CCC(c2ccccc2)C(=O)N1CCCCN1CCN(c2ccccn2)CC1	MTT	>100 µM
CCn1c(=O)c(C)cn([C@@H]2O[C@H](CO[Si](C)(C)C(C)(C)C)C3(OS(=O)(=O)C=C3N)[C@H]2O[Si](C)(C)C(C)(C)C)c1=O		123 µM
Nc1ncnc2c1ncn2CCOCP(=O)(OCCSSCCO)OCCSSCCO		20 µM
C/C=C(\C)C(=O)O[C@H]1[C@H](OC(=O)CC)[C@@]23C(CC1(C)C)[C@]1(CCC4[C@@]5(C)CC[C@H](O[C@@H]6O[C@H](CO)[C@@H](O)[C@H](O[C@@H]7O[C@H](CO)[C@H](O)[C@H](O)[C@H]7O[C@@H]7O[C@@H](C)[C@H](O)[C@@H](O)[C@H]7O)[C@H]6O[C@@H]6O[C@H](CO)[C@H](O)[C@H](O)[C@H]6O)C(C)(C)C5CC[C@@]4(C)[C@]1(C)C[C@H]2O)O[C@@H]3O	MTT	<15 µg/mL
C#CC1(CO)O[C@@H](n2cc(/C=C/Br)c(=O)[nH]c2=O)C[C@@H]1O		1.5 µM
CC(C)=CCc1cc(C2CC(=O)c3c(cc(O)c(CC=C(C)C)c3O)O2)ccc1O		14 µg/mL
CC(=O)SCCOP(=O)(OCCSC(C)=O)OC[C@H]1O[C@@H](n2cc(C)c(=O)[nH]c2=O)C[C@@H]1N=[N+]=[N-]		>100 µM
O=C(NCc1c(F)cc(F)cc1F)c1cn2c(c(O)c1=O)C(=O)N1C3CCC(CC3)O[C@@H]1C2	ATP	3.544 µM
[N-]=[N+]=N[C@@H]1C[C@@H](n2cnc3c(N)nc(Cl)nc32)O[C@H]1CO		>10 µM
O=C1CCC(c2ccccc2)C(=O)N1CCCN1CCN(c2ccccc2O)CC1	MTT	>100 µM
CCCCCCCCCCc1ccc2c(c1)N(C)[C@@H](C(C)C)C(=O)N[C@@H](CO)CC2		5–10 µg/mL
CCc1c(Cc2ccccc2)nc(OC(C)C)[nH]c1=O		193 µM
CC(C)(C)NC(=O)[C@@H]1CN(Cc2cccnc2)CCN1C[C@@H](O)C[C@@H](Cc1ccccc1)C(=O)N[C@H]1c2ccccc2C[C@H]1OC(=O)CCCCO[C@H]1O[C@H](CO)[C@@H](O)[C@H](O)[C@@H]1O	MTT	>1000 µM
CCCCCCCCCCc1ccc2c(c1)N(C)[C@@H](C(C)C)C(=O)N[C@H](CO)CC2		10 µg/mL
Cc1cn([C@H]2C[C@H](N=[N+]=[N-])[C@@H](CO)O2)c(=O)[nH]c1=O	MTT	500 µg/mL
CC(C)=CCc1cc([C@H]2Oc3c(ccc(O)c3CC=C(C)C)C(=O)[C@@H]2O)ccc1O		12 µg/mL
CC(C)(C)NC(=O)[C@@H]1C[C@@H]2CCCC[C@@H]2CN1C[C@@H](OC(=O)CCCCO[C@H]1O[C@H](CO)[C@@H](O)[C@H](O)[C@@H]1O)[C@H](Cc1ccccc1)NC(=O)[C@H](CC(N)=O)NC(=O)c1ccc2ccccc2n1	MTT	>50 µM
Nc1nc(Cl)nc2c1ncn2[C@H]1O[C@@H](CO)[C@@H](O)[C@@H]1O		>10 µM
CCOC(=O)c1oc2cc(O)cc(O)c2c(=O)c1Oc1ccc(OC)cc1OC		>25 µg/mL
Cc1cn([C@H]2C[C@H](N=[N+]=[N-])[C@@H](CO)O2)c(=O)[nH]c1=O		27 µM
Cc1c(O)cccc1C(=O)N[C@@H](CSc1ccccc1)[C@H](O)CN1C[C@H]2CCCC[C@H]2C[C@H]1C(=O)NC(C)(C)C		6.8 µM
CCCCCCCCCCc1ccc2c(c1)N(C)[C@H](C(C)C)C(=O)N[C@H](CO)C2		5 µg/mL

For reference, 4 entries again:

compound,method,value
C/C=C(\C)C(=O)O[C@H]1[C@H](OC(=O)CC)[C@@]23C(CC1(C)C)[C@]1(CCC4[C@@]5(C)CC[C@H](O[C@@H]6O[C@H](CO)[C@@H](O)[C@H](O[C@@H]7O[C@H](CO)[C@H](O)[C@H](O)[C@H]7O[C@@H]7O[C@@H](C)[C@H](O)[C@@H](O)[C@H]7O)[C@H]6O[C@@H]6O[C@H](CO)[C@H](O)[C@H](O)[C@H]6O)C(C)(C)C5CC[C@@]4(C)[C@]1(C)C[C@H]2O)O[C@@H]3O,MTT,<15 µg/mL
C#CC1(CO)O[C@@H](n2cc(/C=C/Br)c(=O)[nH]c2=O)C[C@@H]1O,,1.5 µM
O=C1CCC(c2ccccc2)C(=O)N1CCCN1CCN(c2ccccc2O)CC1,MTT,>100 µM
CC(=O)c1ccc(C)cc1NC(C(N)=O)c1c(Cl)cccc1Cl,,33 µM

Neighbouring rows are from separate reports. a–b is a range or a potency band. An empty or dashed field is not shown.